HIV-1 5' UTR: effect of mutations on RNA dimer formation

Values reported by Ye et al. 2022 (doi:10.1038/s41594-022-00746-2).

The 5' region of HIV-1 NL4-3 RNA (positions 1-437):
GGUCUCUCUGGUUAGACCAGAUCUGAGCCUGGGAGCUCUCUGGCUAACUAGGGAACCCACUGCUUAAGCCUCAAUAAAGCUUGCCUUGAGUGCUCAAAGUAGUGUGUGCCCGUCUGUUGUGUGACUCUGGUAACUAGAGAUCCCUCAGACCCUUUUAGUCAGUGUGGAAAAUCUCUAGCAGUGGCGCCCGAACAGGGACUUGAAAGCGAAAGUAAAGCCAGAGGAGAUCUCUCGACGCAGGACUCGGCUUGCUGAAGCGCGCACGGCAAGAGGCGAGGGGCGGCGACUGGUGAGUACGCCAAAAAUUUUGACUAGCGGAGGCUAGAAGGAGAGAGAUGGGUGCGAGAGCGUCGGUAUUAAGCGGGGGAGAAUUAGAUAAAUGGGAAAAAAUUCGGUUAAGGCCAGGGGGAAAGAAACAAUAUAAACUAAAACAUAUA

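Randomly mutated transcripts starting with one, two or three G (1G, 2G, 3G), capped or uncapped, were folded for 30 min at 37 °C. Monomer and dimer bands were cut from native gels after folding in high salt (300 mM KCl, 5 mM MgCl2) or low salt (40 mM KCl, 0.1 mM MgCl2). Mutation frequencies in the two bands give Kdimer.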

Scale: median log2 Kdimer over the changes at a position; positive = changes inhibit dimerization, negative = changes enhance it. One numbering serves 1G, 2G and 3G. A position is written with its base where known. The source gives no letters past position 437.

position	2G uncapped low-salt	3G uncapped low-salt	3G capped low-salt
A424	0.03	-0.05	-0.03
A425	0.09	0.10	0.14
C426	0.01	0.00	0.07
U427	0.01	0.06	-0.06
A428	0.05	-0.09	-0.01
A429	0.05	-0.09	-0.07
A430	-0.09	0.01	0.03
A431	-0.05	-0.06	0.05
C432	-0.02	0.10	0.07
A433	0.07	-0.01	0.09
U434	-0.09	-0.15	-0.15
A435	0.00	0.06	0.07
U436	-0.12	-0.14	-0.14
A437	0.11	-0.02	0.10
438	-0.01	-0.03	-0.08
439	-0.02	-0.05	0.08
440	0.00	0.04	0.15
441	-0.05	0.04	-0.13
442	0.03	0.12	0.22
443	0.11	0.01	0.26
444	0.14	0.22	0.17
445	0.08	-0.14	0.19
446	0.07	-0.02	0.14
447	0.09	-0.32	-0.15
448	0.06	-0.10	0.22
449	-0.09	-0.09	0.23
450	0.04	-0.18	0.05
451	0.03	-0.22	0.09
452	0.13	0.08	0.12
453	0.14	0.19	0.15
454	-0.04	-0.05	0.05
455	-0.08	0.13	0.15
456	-0.03	-0.08	0.01
457	0.06	0.01	0.04
458	0.04	0.05	0.15
459	0.00	0.04	0.02
460	0.08	-0.01	0.06
461	-0.04	-0.06	0.07
462	0.05	0.05	0.02
463	-0.05	-0.12	0.07

Extract of 2 entries:

- position 453 -> 2G uncapped low-salt 0.14; 3G uncapped low-salt 0.19; 3G capped low-salt 0.15
- A437 -> 2G uncapped low-salt 0.11; 3G uncapped low-salt -0.02; 3G capped low-salt 0.10